A mixed list of measured activities; the numbers were collected in NIAID ChemDB.

Common to all: host cell toxicity; cell line: MT-4; endpoint: CC50

CCn is the concentration with n% toxicity to the cells.

structure,method,value
O=S1(=O)c2ccccc2-n2cncc2-c2cccn21,,85 µM
CC(=O)OCC1=C[C@H]2[C@@H]3C(C)(C)[C@]3(OC(C)=O)[C@H](OC(C)=O)[C@@H](C)[C@]2(O)[C@@H]2C=C(C)C(=O)[C@]2(OC(C)=O)C1,,>500 µg/mL
COc1ccc(NC(=O)CN2CCC(Nc3nccc(Oc4c(C)cc(C#N)cc4C)n3)CC2)cc1,MTT,1.562 µM
CCOCc1cn(Cc2ccncc2)c(Sc2ccccc2)c1C(C)C,MTT,180 µM
COC(=O)C1=C[C@H](O)[C@@H](O)[C@H](O)C1,MTT,>200 µM
C/C=C1/C(=O)OCC[C@@H]1C=O,ATP / luminescence,>10 µM
O=C1Nc2ccccc2Sn2cccc21,,>300 µM
CCOP(=O)(OCC)OC[C@@H]1C=C[C@H](n2cc(C)c(=O)[nH]c2=O)O1,,32 µM
CN(C)C=C1c2nnc(-c3ccccc3)n2-c2ccccc2-n2c1nnc2-c1ccccc1,MTT,133 µM
CC(=O)[C@]12CCC(C)(C)C=C1C1=CCC3[C@@]4(C)CCC(=O)C(C)(C)C4[C@H](O)C[C@@]3(C)[C@]1(C)CC2,MTT,36.37 µM
CO[C@@H]1C=C2C3CC(C)(C)CC[C@]3(C(=O)O)CC[C@@]2(C)[C@]2(C)CCC3C(C)(C)[C@@H](O)CC[C@]3(C)C12,ATP / luminescence,>10 µM
Cc1cn([C@H]2C[C@H](N=[N+]=[N-])[C@@H](CO)O2)c(=O)[nH]c1=O,,>1 µM
c1ccc(Cc2nnc3n2-c2ccccc2-n2c(Cc4ccccc4)nnc2C3)cc1,MTT,58 µM
CC(=O)OC[C@H]1O[C@@H](n2cc(C)c(=O)[nH]c2=O)C[C@@H]1N(C)OC(C)=O,,>250 µg/mL
c1ccc2c(c1)-n1cnnc1Cc1nncn1-2,MTT,>200 µM
CCOC(=O)c1cn(Cc2ccncc2)c(Sc2cc(Cl)cc(Cl)c2)c1C1CCCCC1,MTT,95.1 µM
C/C=C/CN1C(=O)c2cccn2S(=O)(=O)c2ccccc21,,52 µM
Cc1cn([C@H]2C[C@H](N=[N+]=[N-])[C@@H](COC(=O)C(=O)N3CCCC3C(=O)N[C@H](Cc3ccccc3)C(=O)OCc3ccccc3)O2)c(=O)[nH]c1=O,,97 µM
COc1cc(OC2O[C@H](CO)[C@@H](O)[C@H](O)[C@H]2O)cc(OC)c1OC,MTT,>200 µM
CC(=O)OCc1cn(Cc2ccncc2)c(Sc2ccccc2)c1C(C)C,MTT,>200 µM
CCN1C(C)C(=O)Nc2ccc(Cl)cc2S1(=O)=O,,≥200 µM
CC1c2nnc(-c3ccncc3)n2-c2ccccc2-n2c(-c3ccncc3)nnc21,MTT,>200 µM
Cc1cc(C#N)cc(C)c1Oc1ccnc(NC2CCN(CC(=O)Nc3ccc([N+](=O)[O-])cc3)CC2)n1,MTT,0.518 µM
CCN1C2C(S(=O)(=O)c3ccc(C)cc3)=NCN2c2ccccc2S1(=O)=O,,>200 µM
O=C1Nc2cc(Cl)ccc2S(=O)(=O)n2cccc21,,>300 µM
CCCCCCCC(=O)O[C@@H]1[C@@H](C)[C@@]2(O)[C@@H](C=C(COC(C)=O)C[C@@]3(O)C(=O)C(C)=C[C@@H]23)[C@@H]2C(C)(C)[C@]12OC(C)=O,,>500 µg/mL
O=c1[nH]cnc2c1ncn2[C@H]1CC[C@@H](CO)O1,,>150 µM
O=C1c2cccn2S(=O)(=O)c2ccccc2N1CC1CC1,,>300 µM
CC1c2nnc(-c3ccc(Cl)cc3)n2-c2ccccc2-n2c(-c3ccc(Cl)cc3)nnc21,MTT,12 µM
CC(C)=CCN1C(=O)Nc2ccc(Cl)cc2S1(=O)=O,,133 µM
CCCN1C(=O)c2cccn2S(=O)(=O)c2ccc(Cl)cc21,,>300 µM
CCCCCCCCCC(=O)O[C@@H]1[C@@H](C)[C@@]2(O)[C@@H](C=C(COC(C)=O)C[C@]3(O)C(=O)C(C)=C[C@@H]23)[C@@H]2C(C)(C)[C@]12OC(=O)C(C)CC,,>15.6 µg/mL
COC(=O)C(=O)N1CCC[C@H]1C(=O)N[C@@H](Cc1ccccc1)C(=O)OCc1ccccc1,,>200 µM
COC(=O)CCCCCNC(=O)/C=C/c1cn([C@H]2C=C[C@@H](CO)O2)c(=O)[nH]c1=O,,>100 µM
CCN1C(=O)c2cccn2S(=O)(=O)c2ccc(Cl)cc21,,>300 µM
CC(C)CC(NC(=O)C(Cc1ccccc1)NC(=O)C(N)CO)C(=O)NC(C(=O)O)C(C)O,,>210 µM
Cc1cn([C@H]2C[C@H](N=[N+]=[N-])[C@@H](COP(=O)(OCc3ccccc3)OCc3ccccc3)O2)c(=O)[nH]c1=O,,10 µM
CCCCCCCCCC(=O)O[C@@]12[C@H](OC(C)=O)[C@@H](C)[C@@]3(O)[C@@H](C=C(CO)C[C@]4(O)C(=O)C(C)=C[C@@H]34)[C@@H]1C2(C)C,,>62.5 µg/mL
CCN1C(=O)c2cccn2-c2ccccc2S1(=O)=O,,>200 µM
ClC1(Cl)c2nnc(-c3ccccc3)n2-c2ccccc2-n2c(-c3ccccc3)nnc21,MTT,30 µM
Cc1cn([C@H]2C=C[C@@H](COP(=O)(O)OCc3ccccc3)O2)c(=O)[nH]c1=O,,24 µM
Cc1cc(C#N)cc(C)c1Oc1ccnc(NC2CCN(CC(=O)Nc3ccccc3Cl)CC2)n1,MTT,1.507 µM
O=C1Nc2ccccc2S(=O)(=O)n2cccc21,,>300 µM
Cc1cc(C#N)cc(C)c1Oc1ccnc(NC2CCN(CC(=O)Nc3cc(Cl)cc(Cl)c3)CC2)n1,MTT,3.521 µM
Cc1cn([C@H]2C=C[C@@H](COP(=O)(O)O)O2)c(=O)[nH]c1=O,,42 µM
Cc1cc(C#N)cc(C)c1Oc1ccnc(NC2CCN(CC(=O)Nc3cccc([N+](=O)[O-])c3)CC2)n1,MTT,>0.379 µM
Cc1cn([C@H]2C[C@H](N=[N+]=[N-])[C@@H](CO)O2)c(=O)[nH]c1=O,,93 µM
CC1c2n[nH]c(=O)n2-c2ccccc2-n2c1n[nH]c2=O,MTT,>200 µM
CCN1C(c2c(Cl)cccc2Cl)c2cccn2-c2ccc(Cl)cc2S1(=O)=O,,4.8 µM
NC(=O)OCc1cn(Cc2ccncc2)c(Sc2cc(Cl)cc(Cl)c2)c1C1CC1,MTT,121.7 µM
CC(=O)OCC1=C[C@H]2[C@@H]3C(C)(C)[C@]3(OC(C)=O)[C@H](OC(=O)C34CC5CC(CC(C5)C3)C4)[C@@H](C)[C@]2(O)[C@@H]2C=C(C)C(=O)[C@]2(O)C1,,>500 µg/mL
O=c1[nH]cnc2c1ncn2[C@H]1CC[C@@H](CO)O1,,>200 µg/mL
COC(O)c1cc(O)c(O)c(O)c1,MTT,25.15 µM

Repeating the final 5 entries:

structure	method	value
CCN1C(c2c(Cl)cccc2Cl)c2cccn2-c2ccc(Cl)cc2S1(=O)=O		4.8 µM
NC(=O)OCc1cn(Cc2ccncc2)c(Sc2cc(Cl)cc(Cl)c2)c1C1CC1	MTT	121.7 µM
CC(=O)OCC1=C[C@H]2[C@@H]3C(C)(C)[C@]3(OC(C)=O)[C@H](OC(=O)C34CC5CC(CC(C5)C3)C4)[C@@H](C)[C@]2(O)[C@@H]2C=C(C)C(=O)[C@]2(O)C1		>500 µg/mL
O=c1[nH]cnc2c1ncn2[C@H]1CC[C@@H](CO)O1		>200 µg/mL
COC(O)c1cc(O)c(O)c(O)c1	MTT	25.15 µM

An empty or dashed field is not shown. Neighbouring rows are from separate reports.